ChEMBL document CHEMBL1687791, “Identification and characterization of four azole-resistant erg3 mutants of Candida albicans” (2010)

Tested on: Candida albicans
Experiment: Antifungal activity against Candida albicans isolate 6 assessed as lanosterol/obtusifoliol content in total sterol composition at 0.5 times MIC by GC-MS analysis
Type: functional

OC(Cn1cncn1)(Cn1cncn1)c1ccc(F)cc1F [FLUCONAZOLE]
Activity: 20.2%
